# Test results as given in publication PMC11400957, “Structural and functional characterization of the IpaD π-helix reveals critical roles in DOC interaction, T3SS apparatus maturation, and Shigella virulence” (The Journal of Biological Chemistry, 2024).
# Legend:
# IpaD^WT (full-length) [1] = target: IpaD^WT (full-length) (Shigella flexneri, UniProt P18013); test: fluorescence polarization, direct titration; format: binding; conditions: labelled compound (25 nM FITC-DOC); PBS pH 7.4, 25 °C; single-site model; read-out: Kd (μM ± SD) ^a
# Excerpt: fluorescence polarization, direct titration on IpaD^WT (full-length)
# IpaD^WT (full-length) [2] = target: IpaD^WT (full-length) (Shigella flexneri, UniProt P18013, DEL148-148); conditions: read-out: Kd (μM ± SD) ^a; labelled compound (25 nM FITC-DOC); PBS pH 7.4, 25 °C; single-site model
# IpaD^WT (full-length) [3] = target: IpaD^WT (full-length) (Shigella flexneri, UniProt P18013, DEL149-149); conditions: read-out: Kd (μM ± SD) ^a; labelled compound (25 nM FITC-DOC); PBS pH 7.4, 25 °C; single-site model
substance,measurement,setting,value
FITC-DOC,Kd,IpaD^WT (full-length) [1],4.7 ± 1 µM
same,Kd,IpaD^WT (full-length) [2],4.9 ± 1 µM
same,Kd,IpaD^WT (full-length) [3],5.2 ± 1 µM
